Results of unrelated studies side by side (data: NIAID ChemDB).

All rows: enzyme or target tests; agent: HIV-1; protein: Protease; measure: Ki

Neighbouring rows are from separate reports. An empty or dashed field is not shown.

SMILES	strain	result
Cc1ccccc1CNC(=O)[C@H]1N(C(=O)[C@@H](O)[C@H](Cc2cccc(F)c2)NC(=O)c2cccc(O)c2C)CC(F)(F)C1(C)C	-	<0.0001 µM
CC(C)C(NC(=O)C(NC1CCCN1C(=O)[C@H](Cc1ccccc1)N1CCC([C@H](C)NC(=O)C(N)CO)=CCC1=O)C(C)C)C(N)=O	-	>2000 µM
COc1ccc(S(=O)(=O)N(CC(C)C)C[C@@H](O)[C@H](CCc2ccccc2)NC(=O)[C@@H]2CN(c3cccc(C(F)(F)F)c3)C(=O)O2)cc1	-	0.000006 µM
CCOC(=O)/C=C/[C@@H]1[C@@H](O)[C@@H](Cc2ccccc2)N(Cc2ccc(OC)cc2)C(=O)N1Cc1ccc(OC)cc1	IIIB	>12.5 µM
CCC[C@H](C)CN(C[C@@H](O)[C@H](CCc1ccccc1)NC(=O)c1cccc(O)c1)S(=O)(=O)c1ccc2ncsc2c1	-	0.000046 µM
CCOC(=O)C1OC1[C@@H]1[C@@H](O)[C@@H](Cc2ccccc2)N(Cc2ccc(OC)cc2)C(=O)N1Cc1ccc(OC)cc1	IIIB	>12.5 µM
CSCC[C@H](NC(=O)CCCCCCCCCCCCCCC(=O)N[C@@H](CC(N)=O)C(=O)N[C@@H](Cc1ccccc1)C(=O)O)C(=O)N[C@@H](CC(C)C)C(=O)N[C@@H](Cc1ccccc1)C(N)=O	-	1.59 µM
O=C(O)CCC(CCC(=O)O)(CCC(=O)O)NC(=O)CCC(CCC(=O)NC(CCC(=O)O)(CCC(=O)O)CCC(=O)O)(CCC(=O)NC(CCC(=O)O)(CCC(=O)O)CCC(=O)O)NC(=O)CCCOC(=O)C1(C(=O)OCCCC(=O)NC(CCC(=O)NC(CCC(=O)O)(CCC(=O)O)CCC(=O)O)(CCC(=O)NC(CCC(=O)O)(CCC(=O)O)CCC(=O)O)CCC(=O)NC(CCC(=O)O)(CCC(=O)O)CCC(=O)O)C2c3cc4c5c6c3-c3c(cc7c8c3C6C3c6c-5c(cc5ccc9cc(c-8c3c9c65)C7)C4)C21	-	0.1 µM
CC(C)C[C@H](NC(=O)[C@@H](NC(=O)CCCCCCCCCCCCCCC(=O)N[C@@H](Cc1ccccc1)C(=O)N[C@@H](Cc1ccccc1)C(=O)O)C(C)O)C(=O)N[C@@H](Cc1ccccc1)C(N)=O	-	0.24 µM
CC(=O)c1cccc(N2C[C@@H](C(=O)N[C@@H](CCc3ccccc3)[C@H](O)CN(CC(C)C)S(=O)(=O)c3ccc4c(c3)OCO4)OC2=O)c1	-	0.000006 µM
CCOC(=O)/C=C/[C@@H]1[C@@H](O)[C@@H](Cc2ccccc2)NC(=O)CN1Cc1ccc(OC)cc1	IIIB	0.616 µM
CC(=O)Nc1ccc(S(=O)(=O)N(CC(C)C)C[C@@H](O)[C@H](Cc2ccccc2)NC(=O)OC(C)(C)C)cc1	-	0.22 µM
CCOC(=O)C1=CN(Cc2ccccc2)C2C(CO)(C3N(Cc4ccccc4)C=C(C(=O)OCC)[C@H](c4ccccc4)C23CO)[C@H]1c1ccccc1	-	5.8 µM
CCC(Cc1ccccc1)c1cc(O)c(C(CC)c2ccccc2)c(=O)o1	-	0.049 µM
C[C@@H](O)[C@H](NC(=O)CCCCCCCCCCCCCCC(=O)N[C@@H](CC(N)=O)C(=O)N[C@@H](Cc1ccccc1)C(=O)O)C(=O)N[C@H](C(=O)N[C@@H](Cc1ccccc1)C(N)=O)C1CCCCC1	-	0.31 µM
CC[C@H](C)[C@H](NC(=O)[C@H](C(C)C)[C@@H](O)[C@H](O)[C@H](CC1CCCCC1)NC(=O)[C@H](Cc1cnc[nH]1)NC(=O)COc1ccccc1)C(=O)NCc1ccccn1	-	0.002 µM
CC[C@H](C)CN(C[C@@H](O)[C@H](CCc1ccccc1)NC(=O)c1cccc(O)c1)S(=O)(=O)c1ccc2ncsc2c1	-	0.000039 µM
CC(C)[C@H](NC(=O)[C@@H](NC(=O)c1cc2ccccc2c(Cc2c(O)c(C(=O)N[C@H](C(=O)N[C@H](C(=O)O)C(C)C)C(C)C)cc3ccccc23)c1O)C(C)C)C(=O)O	-	6.9 µM
COc1cccc(S(=O)(=O)N(Cc2cccs2)C[C@@H](O)[C@H](CCc2ccccc2)NC(=O)c2ccc(O)c(O)c2)c1	-	0.05 µM
O=C(N[C@H]1c2ccccc2C[C@H]1O)[C@H](Cc1ccccc1)C[C@H](O)CN1C(=O)[C@@H](Cc2ccccc2)C[C@@H]1Cc1ccccc1	-	0.000067 µM
CC(C)C[C@H](NC(=O)[C@H](Cc1ccccc1)NC(=O)CCCCCCCCCCCCCCC(=O)N[C@@H](CC(N)=O)C(=O)N[C@@H](Cc1ccccc1)C(=O)O)C(=O)N[C@@H](Cc1ccccc1)C(N)=O	-	0.18 µM
C=CC(C)(C)c1[nH]c2ccccc2c1C1=C(O)C(=O)C(c2c(C(C)(C)C=C)[nH]c3ccccc23)=C(O)C1=O	WT	0.97 µM
CNC(=O)C1NC[C@H](Cc2ccccc2)N(CC(O)CN(CC2CCCC2)S(=O)(=O)c2ccc(OC)cc2)C1=O	-	0.6 µM
COC(=O)[C@@H](NC(=O)[C@@H](NC(=O)CNC[C@H](O)[C@H](Cc1ccccc1)NC(=O)[C@H](C)NC(=O)[C@H](C)N)C(C)C)C(C)C	IIIB	0.004 µM
CC[C@H](C)[C@H](NC(=O)[C@@H](C[C@H](O)[C@H](CC1CCCCC1)NC(=O)CC(C)(C)C)C(C)C)C(=O)NCc1ccccn1	-	0.07 µM
O=S1(=O)N(Cc2cccc(O)c2)[C@H](Cc2ccccc2)CC(O)C[C@@H](Cc2ccccc2)N1Cc1cccc(O)c1	-	1 µM
O=C(O)COc1ccc(-c2cc(O)c(SCCc3ccccc3)c(=O)o2)cc1	-	0.051 µM
O=C1N(Cc2ccccc2)[C@H](Cc2ccccc2)[C@H](O)CN2[C@@H]3CC[C@]12C[C@@H]3NCc1ccccc1	-	2.8 µM
CCC(C)[C@H](NC(=O)[C@H](CCSC)NC(=O)CCCCCCCCCCCCCCC(=O)N[C@@H](CC(N)=O)C(=O)N[C@@H](Cc1ccccc1)C(=O)O)C(=O)N[C@@H](Cc1ccc(N)cc1)C(N)=O	-	0.085 µM
C/C(=C/C(=O)N[C@@H](CCc1ccccc1)[C@H](O)CN(Cc1cccs1)S(=O)(=O)c1cc(F)c(F)cc1F)C(F)(F)F	-	0.053 µM
O=C(N[C@H]1c2ccccc2C[C@H]1O)[C@H](Cc1ccccc1)C[C@H](O)CN1C(=O)[C@@H](Cc2ccccc2)C[C@@H]1Cc1ccccc1	-	0.05 µM
CC(C)C[C@H](NC(=O)[C@@H](NC(=O)CCCCCCCCCCCCCCC(=O)N[C@@H](CC(N)=O)C(=O)N[C@@H](Cc1ccccc1)C(=O)O)C(C)O)C(=O)N[C@@H](CCc1ccccc1)C(N)=O	-	2.15 µM
CC(C)(C)OC(=O)N1C2C3C4N(C(=O)OC(C)(C)C)C5C(C1C5(CO)[C@H]3c1ccccc1)[C@@H](c1ccccc1)C24CO	-	0.03 µM
C=CCC1NC[C@H](Cc2ccccc2)N(CC(O)CN(CC2CCCC2)S(=O)(=O)c2ccc(OC)cc2)C1=O	-	>20 µM
CC(C)[C@H](NC(=O)[C@H](Cc1ccccc1)C[C@H](O)[C@H](Cc1ccccc1)NC(=O)OC(C)(C)C)C(=O)N[C@@H](Cc1ccccc1)C(=O)N1CCOCC1	-	0.0002 µM
CC(C)(C)NC(=O)[C@@H]1C[C@@H]2CCCC[C@@H]2CN1C[C@@H](O)[C@H](Cc1ccccc1)NC(=O)[C@@H](NC(=O)Cc1cc2c(O)cccc2cn1)C(C)(C)S(C)(=O)=O	-	0.000151 µM
O=C(NCc1ccc2c(c1)[C@H](O)[C@@H](O)c1cc(CNC(=O)OCc3ccccc3)ccc1C2=O)OCc1ccccc1	-	0.005 µM
COC(=O)c1cccc(CN2C(=O)C(=O)N(Cc3cccc(C(=O)OC)c3)[C@H](Cc3ccccc3)[C@H](O)[C@H]2CCc2ccccc2)c1	-	0.04 µM
CSC[C@H](NC(=O)[C@@H](NOC(C)(C)C)C(C)C)C(=O)N[C@@H](CC(C)C)[C@@H](O)C[C@@H](C)C(=O)N[C@H](C(=O)NCC(C)C)C(C)C	-	0.0008 µM
COc1ccc(S(=O)(=O)N(CC(O)CN2C(=O)C3(CCCC3)N(C)C[C@@H]2Cc2ccccc2)CC2CCCC2)cc1	-	>20 µM
Cc1c(O)cccc1C(=O)N[C@@H](Cc1cccc(F)c1)[C@H](O)C(=O)N1CC(F)(F)C(C)(C)[C@H]1C(=O)NCC(F)(F)F	-	<0.0001 µM
COc1ccccc1/C(=N\O)C(=O)C(Br)(Br)Br	-	2.1 µM
CC[C@H](C)[C@H](NC(=O)[C@H](C(C)C)[C@@H](O)[C@H](O)[C@H](CC1CCCCC1)NC(=O)[C@H](Cc1cnc[nH]1)NC(=O)[C@H](Cc1ccccc1)NC(=O)OC(C)(C)C)C(=O)NCc1ccccn1	-	0.003 µM
CC(C)[C@H](NC(=O)OCc1ccccc1)C(=O)N[C@@H](Cc1ccccc1)C(O)[C@H](Cc1ccccc1)NC(=O)[C@@H](NC(=O)OCc1ccccc1)C(C)C	-	0.01 µM
C=CCN1C(=O)N(Cc2ccc(OC)cc2)[C@@H](CO)[C@H](O)[C@@H]1Cc1ccccc1	IIIB	>12.5 µM
CC(C)CN(C[C@@H](O)[C@H](CCc1ccccc1)NC(=O)[C@@H]1CN(c2cccc(C(F)(F)F)c2)C(=O)O1)S(=O)(=O)c1ccc2c(c1)OCO2	-	0.000016 µM
COc1ccc(S(=O)(=O)N(CC(O)CN2C(=O)C(CC(N)=O)C[C@@H]2Cc2ccccc2)CC2CCCC2)cc1	-	0.03 µM
CC(C)C[C@H](NC(=O)[C@@H](NC(=O)CCCCCCCCCCCCCCC(=O)N[C@@H](CC[N+](=O)[O-])C(=O)N[C@@H](Cc1ccccc1)C(=O)O)C(C)O)C(=O)N[C@@H](Cc1ccccc1)C(N)=O	-	0.828 µM
Cc1ccccc1CNC(=O)[C@H]1N(C(=O)[C@@H](O)[C@H](CCc2ccccc2)NC(=O)O[C@H]2CCOC2)CSC1(C)C	-	0.00021 µM

A second listing of 6 rows from above:

SMILES,strain,result
O=C1N(Cc2ccccc2)[C@H](Cc2ccccc2)[C@H](O)CN2[C@@H]3CC[C@]12C[C@@H]3NCc1ccccc1,-,2.8 µM
C/C(=C/C(=O)N[C@@H](CCc1ccccc1)[C@H](O)CN(Cc1cccs1)S(=O)(=O)c1cc(F)c(F)cc1F)C(F)(F)F,-,0.053 µM
CCC[C@H](C)CN(C[C@@H](O)[C@H](CCc1ccccc1)NC(=O)c1cccc(O)c1)S(=O)(=O)c1ccc2ncsc2c1,-,0.000046 µM
CCC(Cc1ccccc1)c1cc(O)c(C(CC)c2ccccc2)c(=O)o1,-,0.049 µM
CCOC(=O)C1=CN(Cc2ccccc2)C2C(CO)(C3N(Cc4ccccc4)C=C(C(=O)OCC)[C@H](c4ccccc4)C23CO)[C@H]1c1ccccc1,-,5.8 µM
C=CCN1C(=O)N(Cc2ccc(OC)cc2)[C@@H](CO)[C@H](O)[C@@H]1Cc1ccccc1,IIIB,>12.5 µM